Source: patent publication US6673821B2, “Nitrogen heterocycle inhibitors of aspartyl protease” (Enanta Pharmaceuticals, Inc., priority 2001, dated 2004)

Target: HIV-1 protease (Human immunodeficiency virus type 1 group M subtype B, UniProt P04585)
Test: Biological assay for inhibition of microbial expressed viral protease (HIV-1 protease)
Details: read-out: Activity; IC50 against HIV-1 protease, given as class symbol
Excerpt: Insofar as compounds of the invention are able to inhibit the replication of the HIV virus in human T-cells and furthermore, may be delivered orally to mammals, they are of evident clinical utility for the treatment of HIV infection. These tests are predictive of the compounds ability to inhibit HIV protease in vivo. We have measured the inhibition constants of each compound against HIV-1 protease using essentially the method described by M. W. Pennington et al., Peptides 1990, Gimet, E. and D. Andrew, Eds., Escom; Leiden, Netherlands (1990).
Biological Assay for Inhibition of Microbial Expressed Viral Protease
The inhibition constants against HIV-1 protease were measured using the method described by M. V. Toth and G. R. Marshall, Int. J. Peptide protein Res., 1990, 544. The method described M. W. Pennington et al., Peptides 1990, Gimet, E. and D. Andrew, Eds., Escom; Leiden, Netherlands (1990) may also be used. Inhibition is measured as IC50 in μM. The person of skill would accept these tests as predictive of the compounds' utility in vivo to treat HIV infected patients.

| Structure (SMILES) | IC50 |
| --- | --- |
| CC(C)(C)OC(=O)N[C@@H](Cc1ccccc1)[C@H](O)C1SCCN1S(=O)(=O)c1ccc(F)cc1 (some centres unmarked) | < 5 µM |
| COCC(=O)N[C@@H](Cc1ccccc1)[C@H](O)C1SCCN1S(=O)(=O)c1ccc(F)cc1 (some centres unmarked) | < 5 µM |
